Data from ChEMBL document CHEMBL1124338, “Amine peroxides as potential antimalarials” (J Med Chem, 1989).

Tests used:
[1] = system: Plasmodium falciparum; assay: In vitro antimalarial activity against Plasmodium falciparum D6; type: functional, organism-based
[2] = system: Plasmodium falciparum; assay: In vitro antimalarial activity against Plasmodium falciparum W-2; type: functional, organism-based

Q: For `C1OOCN2COOCN1COOC2`, which IC50 [1] is on record?
A: 2.7 µM

Q: What about the IC50 [2] of the same compound?
A: 3.8 µM

Some compounds may have been tested in ways that are not shown here.
